PubChem BioAssay AID1259414 – Drosophila RNAi Screening Center | 2018
Test: 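Fly genes that alter Wolbachia amount inside host cells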 (primary screen). System: Drosophila JW18 cells infected with Wolbachia. Reagents: long dsRNA against Drosophila genes, 0.25 µg dsRNA per well of a 384-well plate. Timing: 5 days. Treatment: cells persistently infected with Wolbachia before knock-down; no added drug. Detection: 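Imaged fluorescence in situ signal for Wolbachia 23S rRNA per DAPI-counted host cell, given as a robust z-score within each plate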. Direction: Wolbachia per cell robust z: higher = more Wolbachia per host cell than the plate typical. Rule for the call: 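Hit when robust z is 1.5 or more, or -1.5 or less, in at least two of three replicates; excludes dsRNAs with several or no targets, genes not expressed in JW18 and well A1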.
The screen tested about 24,000 reagents; this is an unselected part of those with a known target gene and a result. Over the whole deposit, about 1,210 (5%) are marked active. 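Inactive calls also include excluded dsRNAs with several or no targets, genes unexpressed in JW18, and well A1, regardless of score.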 Names joined by + are all predicted targets of the reagent.

predicted target | DRSC id | Wolbachia per cell robust z, rep 1 | Wolbachia per cell robust z, rep 2 | Wolbachia per cell robust z, rep 3 | Call
ASPP | DRSC23069 | 0.513 | 0.293 | -1.86 | inactive
CG13310 | DRSC09981 | 1.04 | 1.19 | -0.494 | inactive
CG13310 | DRSC28258 | 0.0179 | -0.211 | -0.396 | inactive
S6KL | DRSC19349 | 1.24 | 0.647 | -0.328 | inactive
S6KL | DRSC23147 | 0.433 | -0.305 | 0.381 | inactive
CG5157 | DRSC10488 | -0.929 | 0.529 | -1.43 | inactive
CG5157 | DRSC27474 | -1.29 | 0.0843 | -0.911 | inactive
CG5157 | DRSC39055 | -0.135 | 0.35 | -0.111 | inactive
lds | DRSC16988 | -0.131 | -1.42 | -0.099 | inactive
Taf3 | DRSC17170 | -0.334 | -0.0987 | -5.5 | inactive
Taf3 | DRSC29650 | -1.53 | -6.67 | -0.693 | active
IntS8 | DRSC07417 | 0.955 | 0.839 | 0.585 | inactive
thoc6 | DRSC10528 | 0.844 | -0.281 | 1.06 | inactive
CG5098 | DRSC06915 | 0.515 | -0.808 | -0.853 | inactive
CG5098 | DRSC24664 | -1.2 | -0.939 | -0.591 | inactive
Drs | DRSC08657 | -4.82 | 1.17 | 0.677 | inactive
Drs | DRSC27852 | 0.214 | 0.532 | -1.16 | inactive
Drs | DRSC40703 | 0.0366 | 1.27 | 0.839 | inactive
Stam | DRSC03444 | -5.07 | -3.52 | 0.936 | active
Stam | DRSC25607 | 1.08 | 1.35 | 1.95 | inactive
Obp57e | DRSC05891 | -0.0708 | 0.721 | -0.139 | inactive
Obp57e | DRSC41491 | 0.768 | -0.231 | 0.317 | inactive
CG15625 | DRSC00460 | -3.54 | -6.62 | -3.12 | inactive
CG15625 | DRSC29231 | -1.61 | -2.14 | -0.617 | inactive
CG15625 | DRSC39009 | 0.0669 | -0.0496 | -8.72 | inactive
CG15208 | DRSC19654 | -3.62 | 0.386 | -0.797 | inactive
CG3734 | DRSC15509 | 0.599 | -3.46 | 0.606 | inactive
CG3734 | DRSC25892 | -0.597 | -0.131 | -0.512 | inactive
Trm7-34 | DRSC16171 | -0.548 | -5.94 | -1.38 | inactive
CG7370 + Syn1 | DRSC27632 | -0.744 | 0.72 | -0.331 | inactive
CG14995 | DRSC22991 | -0.0465 | -5.85 | -8.01 | active
CG10681 | DRSC09777 | -5.65 | 0.0128 | 0.261 | inactive
CG10681 | DRSC21484 | 0.114 | 1.23 | 1.09 | inactive
CG10681 | DRSC27329 | -5.1 | -0.105 | 0.527 | inactive

Copied from the list:
Obp57e [DRSC05891], Wolbachia per cell robust z, rep 1: -0.0708
CG15625 [DRSC39009], Call → inactive
Entry of CG5157 [DRSC10488] in “Wolbachia per cell robust z, rep 3”: -1.43
thoc6 [DRSC10528], Wolbachia per cell robust z, rep 2 → -0.281
Value of CG5157 [DRSC27474] in “Wolbachia per cell robust z, rep 3”: -0.911

Next reagents follow:
predicted target | DRSC id | Wolbachia per cell robust z, rep 1 | Wolbachia per cell robust z, rep 2 | Wolbachia per cell robust z, rep 3 | Call
CG5767 | DRSC06953 | 0.46 | 0.97 | 0.487 | inactive
CG5767 | DRSC29980 | -0.675 | 0.0882 | -0.359 | inactive
Cpes | DRSC04475 | 0.823 | -1.31 | 0.258 | inactive
Cpes | DRSC27503 | -0.764 | -0.0733 | 0.783 | inactive
CG10969 | DRSC09811 | 0.91 | 0.0449 | 0.622 | inactive
CG10969 | DRSC29502 | -0.935 | 0.0362 | -1.67 | inactive
CG18810 | DRSC02701 | 1.31 | -0.145 | -0.623 | inactive
mre11 | DRSC03570 | -3.3 | -0.347 | 0.51 | inactive
mre11 | DRSC22628 | 1.27 | 0.799 | 0.925 | inactive
mre11 | DRSC26311 | 0.495 | 0.397 | 0.6 | inactive
eIF4E5 | DRSC10975 | 0.659 | 0.381 | -1.56 | inactive
eIF4E5 | DRSC25877 | -1.69 | -0.462 | -1.66 | inactive
Smyd5 | DRSC15483 | 0.489 | 0.191 | 0.0411 | inactive
CG42536 | DRSC41398 | -3.14 | -0.604 | -0.56 | inactive
CG14120 | DRSC10124 | -0.114 | -0.824 | 0.354 | inactive
CG14120 | DRSC27955 | -0.689 | 0.472 | -0.234 | inactive
CG10909 | DRSC14282 | 1.02 | 0.356 | -0.523 | inactive
CG4213 | DRSC00641 | 0.769 | 1.26 | 0.661 | inactive
lolal | DRSC06948 | 0.111 | 0.264 | 0.23 | inactive
CG8066 | DRSC16374 | 0.857 | -1.09 | 0.33 | inactive
CG8066 | DRSC24633 | 0.34 | 0.311 | -0.873 | inactive
ppk11 | DRSC02737 | -3.77 | 0.363 | -4.88 | inactive
narya | DRSC19439 | -0.101 | 0.163 | -7.26 | inactive
CG6138 | DRSC02933 | 0.0995 | -0.605 | -0.531 | inactive
Stt3B | DRSC16781 | 0.683 | -1.12 | -4.8 | inactive
CG31077 | DRSC13805 | 0.354 | 0.0544 | -0.548 | inactive
CG31077 | DRSC23916 | -0.461 | 1.76 | -0.504 | inactive
soti | DRSC16432 | 0.325 | -0.691 | 1.86 | inactive
soti | DRSC28682 | -1.29 | -0.873 | 0.307 | inactive
CG42649 | DRSC41371 | -0.763 | -0.962 | -2.78 | inactive
LysS | DRSC08677 | 1.1 | -2.43 | 1.1 | inactive
LysS | DRSC27168 | -0.63 | 0.744 | 0.56 | inactive
CG32857 + CG32500 + CG33502 | DRSC21038 | 0.699 | 0.484 | -0.0143 | inactive
CG14757 | DRSC06492 | 1.09 | -0.0221 | 0.0916 | inactive
CG14757 | DRSC25690 | 0.944 | -2.9 | -11.1 | active
